Laboratory results: PubChem BioAssay AID624099 (ICCB-Longwood, 2012)
The whole screen tested about 21,000 reagents; this is an unselected part. In the full data, 497 (2.4%) got an active call. 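Higher z means weaker E2 silencing; only reporter increases were scored, and knock-downs that hurt cell survival may mask genuine repressor factors.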

Aim: 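Host factors E2 relies on to silence an HPV18 LCR reporter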 (primary screen)
Cell system: human C33A cervical carcinoma cells (HPV-negative) stably expressing BPV1 E2 and an HPV18 LCR luciferase reporter
Reagent: siRNA pool against human genes, 40 nM
Timing: 72 h
Measurement: 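Per-well luciferase luminescence, z-scored on each plate against the plate mean and SD with control wells left out, then averaged across three replicate plates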
Direction: mean z-score and z-score: higher = stronger reporter signal, weaker E2 silencing
Active means: 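Hit if mean z-score reaches 2 and two or more of three replicate z-scores also reach 2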

{"gene": "METTL15P1", "mean z-score": 0.6, "z-score, replicate A": 0.43, "z-score, replicate B": 0.87, "z-score, replicate C": 0.5, "Outcome": "inactive"}
{"gene": "RPS27P17", "mean z-score": -2.72, "z-score, replicate A": -2.77, "z-score, replicate B": -2.21, "z-score, replicate C": -3.19, "Outcome": "inactive"}
{"gene": "RPL26", "mean z-score": -1.57, "z-score, replicate A": -1.54, "z-score, replicate B": -1.6, "z-score, replicate C": -1.56, "Outcome": "inactive"}
{"gene": "TSPYL3", "mean z-score": -1.59, "z-score, replicate A": -1.7, "z-score, replicate B": -1.72, "z-score, replicate C": -1.35, "Outcome": "inactive"}
{"gene": "LOC342659 (retired record)", "mean z-score": -0.05, "z-score, replicate A": -0.22, "z-score, replicate B": -0.03, "z-score, replicate C": 0.1, "Outcome": "inactive"}
{"gene": "CHTOP", "mean z-score": -0.1, "z-score, replicate A": -0.39, "z-score, replicate B": 0.1, "z-score, replicate C": -0.01, "Outcome": "inactive"}
{"gene": "PLIN3", "mean z-score": -0.17, "z-score, replicate A": 0.21, "z-score, replicate B": -0.2, "z-score, replicate C": -0.53, "Outcome": "inactive"}
{"gene": "CNOT6", "mean z-score": -0.04, "z-score, replicate A": 0.25, "z-score, replicate B": -0.1, "z-score, replicate C": -0.27, "Outcome": "inactive"}
{"gene": "SHROOM1", "mean z-score": 0.51, "z-score, replicate A": 0.71, "z-score, replicate B": 0.55, "z-score, replicate C": 0.28, "Outcome": "inactive"}
{"gene": "FAM194C", "mean z-score": 0.29, "z-score, replicate A": 0.38, "z-score, replicate B": 0.34, "z-score, replicate C": 0.16, "Outcome": "inactive"}
{"gene": "LOC402709 (retired record)", "mean z-score": -0.47, "z-score, replicate A": -0.73, "z-score, replicate B": -0.41, "z-score, replicate C": -0.29, "Outcome": "inactive"}
{"gene": "TRAF7", "mean z-score": 0.02, "z-score, replicate A": 0.4, "z-score, replicate B": 0.05, "z-score, replicate C": -0.41, "Outcome": "inactive"}
{"gene": "C9orf40", "mean z-score": 0.39, "z-score, replicate A": 0.43, "z-score, replicate B": 0.11, "z-score, replicate C": 0.64, "Outcome": "inactive"}
{"gene": "TIGD3", "mean z-score": -2.04, "z-score, replicate A": -2.49, "z-score, replicate B": -2.04, "z-score, replicate C": -1.6, "Outcome": "inactive"}

2 entries from above in another layout.
gene,mean z-score,"z-score, replicate A","z-score, replicate B","z-score, replicate C",Outcome
LOC402709 (retired record),-0.47,-0.73,-0.41,-0.29,inactive
TRAF7,0.02,0.4,0.05,-0.41,inactive
